The results in this text go back to patent US9625458B2, “Biosensor” (priority 2002, dated 2017).

The chains behind the UniProt entries cited, without tags or fusion partners. Where a name states a change or a piece, a line headed by the entry shows the natural chain unless it says otherwise.
UniProt P02924: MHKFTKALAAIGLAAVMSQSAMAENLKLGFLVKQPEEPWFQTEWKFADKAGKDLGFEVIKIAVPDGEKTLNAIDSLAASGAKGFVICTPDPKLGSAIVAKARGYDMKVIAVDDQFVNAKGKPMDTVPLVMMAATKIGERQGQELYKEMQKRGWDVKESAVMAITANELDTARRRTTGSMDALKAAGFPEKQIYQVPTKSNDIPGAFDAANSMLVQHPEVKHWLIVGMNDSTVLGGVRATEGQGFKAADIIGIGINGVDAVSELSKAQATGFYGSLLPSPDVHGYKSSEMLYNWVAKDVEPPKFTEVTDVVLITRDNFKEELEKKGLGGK

Numbering of substitutions follows the chain as printed. Names and notes keep the numbering of the source.

First the molecules themselves.
B1: arabinose BP F23C JPW4039 (conjugate, UniProt P02924 24-329, looked up, variant F23C)
L-arabinose-binding …: ENLKLGFLVKQPEEPWFQTEWKCADKAGKDLGFEVIKIAVPDGEKTLNAIDSLAASGAKGFVICTPDPKLGSAIVAKARGYDMKVIAVDDQFVNAKGKPMDTVPLVMMAATKIGERQGQELYKEMQKRGWDVKESAVMAITANELDTARRRTTGSMDALKAAGFPEKQIYQVPTKSNDIPGAFDAANSMLVQHPEVKHWLIVGMNDSTVLGGVRATEGQGFKAADIIGIGINGVDAVSELSKAQATGFYGSLLPSPDVHGYKSSEMLYNWVAKDVEPPKFTEVTDVVLITRDNFKEELEKKGLGGK
modifications: JPW4039 label
B2: Glu/Asp BP F270C Acrylodan (conjugate, UniProt P37902 23-302, looked up, variant F270C)
Glutamate/aspartate import …: DDAAPAAGSTLDKIAKNGVIVVGHRESSVPFSYYDNQQKVVGYSQDYSNAIVEAVKKKLNKPDLQVKLIPITSQNRIPLLQNGTFDFECGSTTNNVERQKQAAFSDTIFVVGTRLLTKKGGDIKDFANLKDKAVVVTSGTTSEVLLNKLNEEQKMNMRIISAKDHGDSFRTLESGRAVAFMMDDALLAGERAKAKKPDNWEIVGKPQSQEAYGCMLRKDDPQFKKLMDDTIAQVQTSGEAEKWFDKWCKNPIPPKNLNMNFELSDEMKALFKEPNDKALN
modifications: acrylodan conjugate
B3: Glu/Asp BP G211C Acrylodan (conjugate, UniProt P37902 23-302, looked up, variant G211C)
Glutamate/aspartate import …: B2 Glutamate/aspartate import … with G189C, C248F
modifications: acrylodan conjugate
B4: Glu/Asp BP F270C Fluorescein (conjugate, UniProt P37902 23-302, looked up, variant F270C)
Glutamate/aspartate import …: B2 Glutamate/aspartate import …
modifications: fluorescein conjugate
B5: Glu/Asp BP G211C JPW4039 (conjugate, UniProt P37902 23-302, looked up, variant G211C)
Glutamate/aspartate import …: B2 Glutamate/aspartate import … with G189C, C248F
modifications: JPW4039 dye conjugate
B6: Glu/Asp BP G211C JPW4042 (conjugate, UniProt P37902 23-302, looked up, variant G211C)
Glutamate/aspartate import …: B2 Glutamate/aspartate import … with G189C, C248F
modifications: JPW4042 dye label
B7: Glu/Asp BP F270C NBD (conjugate, UniProt P37902 23-302, looked up, variant F270C)
Glutamate/aspartate import …: B2 Glutamate/aspartate import …
modifications: NBD conjugate
B8: Glu/Asp BP G211C JPW4045 (conjugate, UniProt P37902 23-302, looked up, variant G211C)
Glutamate/aspartate import …: B2 Glutamate/aspartate import … with G189C, C248F
modifications: JPW4045 label

The nature of one series: Fluorescence emission spectra without and with saturating ligand (wavelength shift, ΔIstd, ΔRmax). The settings on record: emission maximum, absence of ligand. Put shortly: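 Emission spectra of bPBP–fluorophore conjugates (50–1000 nM protein, 25 °C, stirred) recorded without and with saturating ligand, using fluorophore-specific excitation. Wavelength shift, ΔIstd (intensity change at the mid-point wavelength) and ΔRmax (maximal ratiometric change over enumerated band pairs, 2 nm steps, 10 nm width) derived.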
In the case of B1, the “λmax,apo (nm)” value is given as 587.
The same measure, in the same setting: then B2, with 490.
The same measure, in the same setting: then B3, with 493; and B4, with 523; and B5, with 594.
For B6, the “λmax,apo (nm)” value is given as 628.
The same measure, in the same setting: then B7, with 572; and B8, with 631.

Staying with this series, now noted: emission maximum, saturating ligand (ligand column).
B1: the “λmax,sat (nm)” value worked out at 588.
The same measure, in the same setting: then B2, with 492; and B3, with 492.
On to B4, for which the “λmax,sat (nm)” value turned out to be 523.
Take B5: the “λmax,sat (nm)” value is 592.
For B6, the “λmax,sat (nm)” value worked out at 631.
Take B7: the “λmax,sat (nm)” value turned out to be 571.
Still for that read-out and setting: in the case of B8 it was 634.

Still in this series, the particulars now being: standard intensity change, unbound vs ligand-saturated.
For B1, the ΔIstd stood at 0.93.
With B2, the ΔIstd was found to be 0.07.
Still for that read-out and setting: in the case of B3 it was 0.02; in that of B4, 0.04.
Same read-out and setting: in the case of B5 it was 0.01; in that of B6, 0.09.
The same measure, in the same setting: then B7, with 0.06; and B8, with 0.06.

Staying with this series, now noted: standard ratiometric change, unbound vs ligand-saturated.
For the molecule B1, the ΔRmax stood at 0.76.
With B2, the ΔRmax amounted to 0.60.
For the molecule B3, the ΔRmax is given as 0.29.
The same measure, in the same setting: then B4, with 0.21; and B5, with 0.12.
The same measure, in the same setting: in the case of B6 it was 0.12; in that of B7, 0.31; in that of B8, 0.36.
